Measured values reported in paper PMC10465125 (eLife, 2023).
Where two headings read alike, the source gives them in different places.

Legend:
[1] = system: wild-type SARS-CoV-2 Spike Vpps
[2] = system: wild-type SARS-CoV-2 Spike Vpps; remark: listed apart in the source
[3] = system: SARS-CoV-2 wild-type Spike Vpps
[4] = system: SARS-CoV-2 wild-type Spike Vpps; remark: listed apart in the source

Substance: oligomeric proanthocyanidins [OPCs]
- SI (ratio of CC50 to EC50) [1]: 55.91
- SI (ratio of CC50 to EC50) [2]: 22.61
- SI (ratio of CC50 to EC50) [3]: 40.06
- SI (ratio of CC50 to EC50) [4]: 76.82
